Values from PubChem BioAssay AID624099 (ICCB-Longwood, 2012)

Screen: 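Human genes that papillomavirus E2 requires to repress the HPV18 LCR promoter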 (primary screen)
Cell system: human C33A cervical carcinoma cells (HPV-negative) stably expressing BPV1 E2 and an HPV18 LCR luciferase reporter
Reagent: siRNA pool against human genes, 40 nM
Time to read-out: 72 h
Read-out: 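Per-well luciferase luminescence, z-scored on each plate against the plate mean and SD with control wells left out, then averaged across three replicate plates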
Reading the numbers: mean z-score and z-score: higher = stronger reporter signal, weaker E2 silencing
Call rule: 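Mean z ≥ 2 together with z ≥ 2 in two or more of the three replicates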
The whole screen tested about 21,000 reagents; this is an unselected part. Of all reagents, 497 (2.4%) were called active. 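Higher z means weaker E2 silencing; only reporter increases were scored, and knock-downs that hurt cell survival may mask genuine repressor factors.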

RPL6P20 (ribosomal protein L6 pseudogene 20) → mean z-score = -0.17; z-score, replicate A = -0.46; z-score, replicate B = -0.24; z-score, replicate C = 0.19; Outcome = inactive
AP2B1 (adaptor related protein complex 2 subunit beta 1) → mean z-score = 1.05; z-score, replicate A = 0.86; z-score, replicate B = 1.41; z-score, replicate C = 0.89; Outcome = inactive
CASP4 (caspase 4) → mean z-score = 1.48; z-score, replicate A = 1.16; z-score, replicate B = 2.01; z-score, replicate C = 1.25; Outcome = inactive
SLC12A1 → mean z-score = 0.19; z-score, replicate A = -0.03; z-score, replicate B = 0.56; z-score, replicate C = 0.03; Outcome = inactive
PRB1 (proline rich protein BstNI subfamily 1) → mean z-score = -0.61; z-score, replicate A = -0.71; z-score, replicate B = -0.53; z-score, replicate C = -0.6; Outcome = inactive
SPOCD1 (SPOC domain containing 1) → mean z-score = -0.09; z-score, replicate A = -0.29; z-score, replicate B = -0.11; z-score, replicate C = 0.14; Outcome = inactive
IL27 (interleukin 27) → mean z-score = 0.68; z-score, replicate A = 0.14; z-score, replicate B = 1.23; z-score, replicate C = 0.66; Outcome = inactive
HSD17B7 (hydroxysteroid 17-beta dehydrogenase 7) → mean z-score = -0.31; z-score, replicate A = 0.09; z-score, replicate B = -0.48; z-score, replicate C = -0.54; Outcome = inactive
ITGA2 (integrin subunit alpha 2) → mean z-score = 0.09; z-score, replicate A = 0; z-score, replicate B = 0; z-score, replicate C = 0.28; Outcome = inactive
RADX (RPA1 related single stranded DNA binding protein, X-linked) → mean z-score = 0.34; z-score, replicate A = 0.48; z-score, replicate B = 0.44; z-score, replicate C = 0.1; Outcome = inactive
ARSB (arylsulfatase B) → mean z-score = 0.26; z-score, replicate A = 0.05; z-score, replicate B = 0.41; z-score, replicate C = 0.31; Outcome = inactive

Ordered by “z-score, replicate C” (high to low): 2 of the entries above
IL27 (interleukin 27) → mean z-score = 0.68; z-score, replicate A = 0.14; z-score, replicate B = 1.23; z-score, replicate C = 0.66; Outcome = inactive
HSD17B7 (hydroxysteroid 17-beta dehydrogenase 7) → mean z-score = -0.31; z-score, replicate A = 0.09; z-score, replicate B = -0.48; z-score, replicate C = -0.54; Outcome = inactive

The results go on:
SCO2 (synthesis of cytochrome C oxidase 2) → mean z-score = 0.62; z-score, replicate A = 0.8; z-score, replicate B = 0.53; z-score, replicate C = 0.54; Outcome = inactive
CXCL17 (C-X-C motif chemokine ligand 17) → mean z-score = -0.88; z-score, replicate A = -1.45; z-score, replicate B = -0.56; z-score, replicate C = -0.62; Outcome = inactive
LILRB3 (leukocyte immunoglobulin like receptor B3) → mean z-score = -0.06; z-score, replicate A = -0.1; z-score, replicate B = -0.21; z-score, replicate C = 0.12; Outcome = inactive
AMY1A (amylase alpha 1A) → mean z-score = -0.97; z-score, replicate A = -1.08; z-score, replicate B = -0.57; z-score, replicate C = -1.24; Outcome = inactive
MS4A4A (membrane spanning 4-domains A4A) → mean z-score = 1.2; z-score, replicate A = 1.8; z-score, replicate B = 1.06; z-score, replicate C = 0.73; Outcome = inactive
MAP3K11 (mitogen-activated protein kinase kinase kinase 11) → mean z-score = 0.63; z-score, replicate A = 0.53; z-score, replicate B = 0.79; z-score, replicate C = 0.57; Outcome = inactive
RIMKLB (ribosomal modification protein rimK like family member B) → mean z-score = -1.58; z-score, replicate A = -1.6; z-score, replicate B = -1.56; z-score, replicate C = -1.59; Outcome = inactive
LOC388798 (retired record) → mean z-score = -0.99; z-score, replicate A = -0.89; z-score, replicate B = -0.91; z-score, replicate C = -1.18; Outcome = inactive
ALPK2 (alpha kinase 2) → mean z-score = 0.22; z-score, replicate A = 0.47; z-score, replicate B = -0.28; z-score, replicate C = 0.46; Outcome = inactive
UCHL3 (ubiquitin C-terminal hydrolase L3) → mean z-score = 1; z-score, replicate A = 0.87; z-score, replicate B = 1.37; z-score, replicate C = 0.76; Outcome = inactive
